# Test results: PubChem BioAssay AID493033 (ICCB-Longwood Screening Facility, Harvard Medical School, 2011)
# Protein sequences, listed by entry. Tags and fused reporters are not part of them.
# UniProt P9WFX0, whole entry: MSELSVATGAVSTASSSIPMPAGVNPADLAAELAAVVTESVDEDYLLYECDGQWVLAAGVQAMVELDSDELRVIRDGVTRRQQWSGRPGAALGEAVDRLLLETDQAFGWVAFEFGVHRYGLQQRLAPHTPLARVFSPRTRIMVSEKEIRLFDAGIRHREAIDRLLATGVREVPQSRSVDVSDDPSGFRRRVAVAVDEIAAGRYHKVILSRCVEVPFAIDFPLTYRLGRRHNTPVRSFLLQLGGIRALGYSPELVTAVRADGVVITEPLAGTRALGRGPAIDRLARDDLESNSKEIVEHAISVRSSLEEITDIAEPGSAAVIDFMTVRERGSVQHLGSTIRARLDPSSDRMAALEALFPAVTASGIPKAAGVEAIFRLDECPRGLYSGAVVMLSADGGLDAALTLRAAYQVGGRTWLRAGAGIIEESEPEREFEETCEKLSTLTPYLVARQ
# The entries are a selection whose mix differs from that of the whole data set. Active and inactive are the calls of the source. No stated cut-off is given here; in the data, active means inhibition mostly above about 56% (no sharp cut-off); inactive means mostly below about 77%.
# Target: Salicylate synthase (Mycobacterium tuberculosis (strain CDC 1551 / Oshkosh)) (UniProt P9WFX0)
# Experiment: MbtI salicylate synthase inhibitors, primary screen, biochemical, fluorescence intensity (AID 493033)
# Settings: purified MbtI enzyme, fluorescence intensity read-out; active compounds read high; concentration not given here
row,Structure (SMILES),inhibition
1,Cc1ccccc1NP(C)(=O)Nc1ccccc1C,inactive: -3.2%
2,C/C1=C2N=C(/C=C3N=C(/C(C)=C4\[N-][C@@](C)([C@@H]5N=C1[C@](C)(CCC(=O)NC[C@@H](C)OP(=O)([O-])O[C@H]1[C@@H](O)[C@@H](n6cnc7cc(C)c(C)cc76)O[C@@H]1CO)[C@H]5CC(N)=O)[C@@](C)(CC(N)=O)[C@@H]4CCC(N)=O)[C@@](C)(CC(N)=O)[C@@H]\3CCC(N)=O)C(C)(C)[C@@H]/2CCC(N)=O.[C-]#N.[Co+3],inactive: -1.35%
3,O=P(Nc1nccs1)(c1ccccc1)c1ccccc1,inactive: -5.4%
4,Nc1nonc1OCc1nonc1COc1nonc1N,inactive: 0.8%
5,C=CCN1CCN(CCOC(=O)C(O)(c2ccccc2)c2ccccc2)CC1,inactive: -1.75%
6,CC1CCC(C(C)C)C(OP(=O)(Nc2nccs2)c2ccccc2)C1 (stereo not drawn),inactive: -9.8%
7,COc1cc2c(cc1NP(C)(=O)Oc1ccccc1)oc1ccccc12 (stereo not drawn),inactive: 124%
8,COC(=O)c1cc2c(s1)N=C(c1ccccc1)N(C)P2(=O)N1CCOCC1 (stereo not drawn),inactive: 2.65%
9,O=C(OCC1CN(Cc2ccccc2)CCO1)C(O)(c1ccccc1)c1ccccc1 (stereo not drawn),inactive: -10.6%
10,O=C(OCCN1CCN(CCOCc2ccccc2)CC1)C(O)(c1ccccc1)c1ccccc1,inactive: 0%
11,Cc1cc(NC2=NC3C(C(=O)N(C)C(=O)N3C)N2C)n(-c2ccccc2)n1 (stereo not drawn),inactive: -0.3%
12,O=P1(Nc2nncs2)C=C(c2ccccc2)SC(c2ccccc2)=C1,inactive: 35.8%
13,O=P1(Nc2nc3ccc(Cl)cc3s2)COc2ccccc2O1 (stereo not drawn),inactive: -8.4%
14,CP(=O)(Nc1ccccn1)Oc1ccccc1 (stereo not drawn),inactive: 37.1%
15,CCOP(OCC)N1CCOCC1,inactive: -6.05%
16,O=C(COC(=O)C(O)(c1ccccc1)c1ccccc1)N1CCCCC1,inactive: 2.1%
17,CN(C(=O)Cc1ccc(Cl)c(Cl)c1)[C@H]1CCCC[C@@H]1N1CCCC1,inactive: -18.1%
18,CCOP(=Nc1nc2ccccc2n2nnnc12)(OCC)OCC,inactive: 186%
19,CP(=O)(Nc1ccc(Cl)cc1)Oc1ccc(F)cc1 (stereo not drawn),inactive: -5.4%
20,CCc1ccc(OP(C)(=O)Nc2cccnc2)cc1 (stereo not drawn),inactive: 5.5%
21,OCCSCCO,inactive: -12.6%
22,CCOC(=O)c1ccc(NP(C)(=O)Oc2ccc(OC)cc2)cc1 (stereo not drawn),inactive: 7.65%
23,Cc1cccc(NP(C)(=O)Oc2ccccc2)c1 (stereo not drawn),inactive: 2.2%
24,CP(=O)(NC(=O)Nc1ccccc1)Oc1ccccc1 (stereo not drawn),inactive: -10.1%

row,Structure (SMILES),inhibition
1,COP1(=S)c2c(C)nn(-c3ccccc3)c2N=C(c2ccccc2)N1C1CC1 (stereo not drawn),inactive: 11.6%
2,COc1ccccc1OP(C)(=O)Nc1ccccc1 (stereo not drawn),inactive: -0.55%
3,CP(=O)(Nc1ccc(Cl)cc1)Oc1ccccc1 (stereo not drawn),inactive: -11.8%
4,COP1(=S)N=C2c3ccccc3CN2c2cc(N(C)C)ccc21 (stereo not drawn),inactive: 33.1%
5,Cc1cc(C)cc(OP(C)(=O)NCc2ccccc2)c1 (stereo not drawn),inactive: -9.6%
6,Nc1nonc1OCCOc1nonc1N,inactive: -11.9%
7,CC1=Nc2ccc(C(F)(F)F)cc2C1(C)C,inactive: 15.8%
8,O=C(O)C1(O)c2ccccc2-c2ccccc21,inactive: -9.8%
9,O=P1(Nc2nccs2)CC=CC1,inactive: -1.2%
10,O=C(OC1CN2CCC1CC2)C12CC3CC(CC(C3)C1)C2 (stereo not drawn),inactive: 3.7%
11,Cc1cccc(OCC(=O)OC2CN3CCC2CC3)c1 (stereo not drawn),inactive: -3.35%
12,O=C(OC1CN2CCC1CC2)c1ccc(Cl)cc1 (stereo not drawn),inactive: -7.1%
13,CCOP1(=S)c2c(C)nn(CCC#N)c2N=C(c2ccc(F)cc2)N1C (stereo not drawn),inactive: 47.3%
14,O=P1(Nc2nc3ccc(Cl)cc3s2)COc2ccccc2OC1,inactive: -2.2%
15,NC(=O)Nc1ccc([As](=O)(O)O)cc1,inactive: 0.5%
16,NC(=O)COC(=O)C1(O)c2ccccc2-c2ccccc21,inactive: -9.2%
17,Cc1cc(C)cc(OP(C)(=O)Nc2ccc(OC(C)C)cc2)c1 (stereo not drawn),inactive: -44.2%
18,CCSP(=O)(c1ccccc1)c1ccccc1,inactive: -15.8%
19,Cc1nn(CCC#N)c2c1P(=O)(Nc1ccccc1Cl)N(C)C(c1ccc(F)cc1)=N2 (stereo not drawn),inactive: 17.9%
20,CP(=O)(N1CCOCC1)N1CCOCC1,inactive: -6.85%
21,Cc1ccc(C(=O)OC2CN3CCC2CC3)cc1 (stereo not drawn),inactive: -11.7%
22,Cc1nn(-c2ccccc2)c2c1P(=O)(N1CCOCC1)N(C)C(c1ccccc1)=N2 (stereo not drawn),inactive: 8%
23,Nc1nonc1-c1no[n+]([O-])c1-c1nonc1N,inactive: 5.95%
24,O=P1(Nc2ccccn2)COc2ccccc2OC1,inactive: -4.3%
